The text below walks through data of ChEMBL document CHEMBL4152205, “Therapeutic journery of nitrogen mustard as alkylating anticancer agents: Historic to future perspectives” (2018).

One test concerns DU-145. Kind of test: Cytotoxicity against human DU145 cells assessed as reduction in cell viability.
The next test deals with U-87 MG. Kind of test: Cytotoxicity against human U87 cells assessed as reduction in cell viability after 3 days by MTT assay. The settings on record: u-87mg atcc. Background: Formazan colour is commonly taken as a measure of viable cells.
The subject of the next test is A549. Kind of test: Cytotoxicity against human A549 cells assessed as reduction in cell viability after 3 days by MTT assay.
The test system of a further test is IMR-32. Kind of test: Cytotoxicity against human IMR32 cells assessed as reduction in cell viability after 3 days by MTT assay.
Another test has as its system COLO 205. Description: Cytotoxicity against human COLO205 cells assessed as reduction in cell viability after 3 days by MTT assay.

For orientation: CC50 means the concentration giving 50% cytotoxicity. As to `CCCCCCCCCCCCCCCCOC(COC1O[C@H](CN)[C@@H](O)[C@H](O)[C@H]1NC(=O)CCCc1ccc(N(CCCl)CCCl)cc1)OC` (some centres undefined), in the test on DU-145, the CC50 amounted to 6 µM.

In general, IC50 refers to the point on the concentration scale where inhibition reaches its midpoint. Take `COC(=O)C1=C(C)NC(C)=C(C(=O)OC)C1c1ccc(OCCN(CCCl)CCCl)cc1`: the IC50 in the test on U-87 MG, in the test on A549, in the test on IMR-32 and in the test on COLO 205 was 23.7 to 74.4 µM in each case.

As to `COC(=O)C1=C(C)NC(C)=C(C(C)=O)C1c1ccc(N(CCCl)CCCl)cc1` (centres undefined), the IC50 in the test on U-87 MG, with A549, in the test with IMR-32 and with COLO 205 was 23.7 to 74.4 µM each time.
